Molecular target: GST-tagged rat VAMP2 (1-93) (UniProt P63045)

LC/X generated from catalytically active LCHN/X by thrombin activation and DTT
cleavage of recombinant GST-VAMP2 (SDS-PAGE, Coomassie blue staining): Fusion with nanobodies did not affect cleavage of VAMP2 by LC/X
